The values that follow come from PMC9855371, “Antiparasitic Activity of Fluorophenyl-Substituted Pyrimido[1,2-a]benzimidazoles” (Biomedicines, 2023).

Each structure is given as a SMILES string.

Common to all, as to type: cell-based
Data set [1] relates to Toxoplasma gondii. The data set can be described thus: Toxoplasma gondii tachyzoite (RH strain) growth in infected Vero cells, infection index. Conditions: selectivity index (IC50/EC50). The method, then:
Serial passages of cells of the Vero cell line (ATCC® CCL81™, Manassas, VA, USA) were applied for the cultivation of T. gondii tachyzoites of the RH strain (a gift from Dr. Saeed El-Ashram, State Key Laboratory for Agrobiotechnology, China Agricultural University, Beijing, China). Vero cells were cultured by using complete RPMI 1640 medium with heat-inactivated 10% FBS in a humidified 5% CO2 atmosphere, at 37 °C. The 96-well plates (5 × 10^3 cells/well in 200 µL RPMI 1640 medium) were used for the cultivation of the Vero cells and then incubated, at 37 °C, and 5% CO2 for one day, followed by removal of medium and washing the cells with PBS. Then, RPMI 1640 medium containing 2% FBS and T. gondii tachyzoites (RH strain) was given to the cells at a ratio of 5 (parasite):1 (Vero cells). After incubation, at 37 °C, and 5% CO2 for 5 h, cells were washed with PBS and then treated as described below.
Control: RPMI 1640 medium containing DMSO (1%)
Experimental: Medium + compounds (dissolved in DMSO) (50, 25, 12.5, 6.25, 3.13, 1.65, and 0.75 µg mL^−1).
After incubation, at 37 °C, and 5% CO2 for 72 h, the cells were washed with PBS, fixed in 10% formalin and stained with 1% toluidine blue. Examination of the cells and determination of the infection index (number of cells infected from 200 cells tested) of T. gondii were carried out with an inverted photomicroscope. The following equation was used for the calculation of the inhibition in %:Inhibition (%) = (I Control − I Experimental)/(I Control) × 100 where “I Control” refers to the infection index of untreated cells and “I Experimental” refers to the infection index of cells treated with test compounds.
Then, effects of test compounds on parasite growth were expressed as EC50 (effective concentration at 50%) values. EC50 values were obtained from three independent experiments.

For data set [2], the system named is Leishmania major promastigotes. The data set can be described thus: Leishmania major promastigote viability, MTT assay. Conditions: selectivity index (IC50 Vero from Table 1/EC50 promastigotes).
The test system of data set [3] is Leishmania major amastigotes. The data set can be described thus: Leishmania major amastigotes in peritoneal macrophages, percentage of infected macrophages (Giemsa). Conditions: selectivity index (IC50 Vero from Table 1/EC50 amastigotes).

For `O=C1C(O)=C([C@H]2CC[C@H](c3ccc(Cl)cc3)CC2)C(=O)c2ccccc21` [ATO, atovaquone, reference compound], the “SI (Vero/T. gondii)” value in data set [1] turned out to be 136.
For `C[C@@H]1[C@H](O)[C@@H](C)/C=C/C=C/C=C/C=C/C=C/C=C/C=C/[C@H](O[C@@H]2O[C@H](C)[C@@H](O)[C@H](N)[C@@H]2O)C[C@@H]2O[C@](O)(C[C@@H](O)C[C@@H](O)[C@H](O)CC[C@@H](O)C[C@@H](O)CC(=O)O[C@H]1C)C[C@H](O)[C@H]2C(=O)O` [AmB, Amphotericin B, reference compound], the “SI Vero/Promastigotes” value in data set [2] was found to be 9.6. Further, the “SI Vero/Amastigotes” value in data set [3] was 16.4.
With `N#CC1=C(N)n2c(nc3ccccc32)NC1c1cccc(F)c1` (stereo not drawn) [Compound 2a, 4-Amino-2-(3-fluorophenyl)-1,2-dihydropyrimido[1,2-a]benzimidazole-3-carbonitrile], the “SI (Vero/T. gondii)” value in data set [1] was 0.94. In addition, the “SI Vero/Promastigotes” value in data set [2] was 11.1. Besides, the “SI Vero/Amastigotes” value in data set [3] was found to be 21.6.
The corresponding values for `N#CC1=C(N)n2c(nc3ccccc32)NC1c1cc(F)cc(F)c1` (stereo not drawn) [Compound 2b, 4-Amino-2-(3,5-difluorophenyl)-1,2-dihydropyrimido[1,2-a]benzimidazole-3-carbonitrile] are 0.76, 0.31 and 1.45.
The corresponding values for `N#CC1=C(N)n2c(nc3ccccc32)NC1c1ccccc1F` (stereo not drawn) [Compound 2c] are 0.68, 0.37 and 0.74.
The corresponding values for `N#CC1=C(N)n2c(nc3ccccc32)NC1c1ccc(F)cc1` (stereo not drawn) [Compound 2d] are 0.97, 1.87 and 1.00.
For the compound `COc1cc(C2Nc3nc4ccccc4n3C(N)=C2C#N)cc(Br)c1OC` (stereo not drawn) [Compound 2e, 4-Amino-2-(3-bromo-4,5-dimethoxyphenyl)-1,2-dihydropyrimido[1,2-a]benzimidazole-3-carbonitrile], the “SI (Vero/T. gondii)” value in data set [1] stood at 2.00. The “SI Vero/Promastigotes” value in data set [2] was 0.73. The “SI Vero/Amastigotes” value in data set [3] worked out at 0.76.
Turning to `N#Cc1c(-c2cccc(F)c2)nc2nc3ccccc3n2c1N` [Compound 3a, 4-Amino-2-(3-fluorophenyl)pyrimido[1,2-a]benzimidazole-3-carbonitrile], the “SI (Vero/T. gondii)” value in data set [1] was 1.07. The “SI Vero/Promastigotes” value in data set [2] is 1.08. Further, the “SI Vero/Amastigotes” value in data set [3] is reported as 1.37.
The corresponding values for `N#Cc1c(-c2cc(F)cc(F)c2)nc2nc3ccccc3n2c1N` [Compound 3b, 4-Amino-2-(3,5-difluorophenyl)pyrimido[1,2-a]benzimidazole-3-carbonitrile] are 8.12, 1.66 and 0.78.
The corresponding values for `N#Cc1c(-c2ccccc2F)nc2nc3ccccc3n2c1N` [Compound 3c, 4-Amino-2-(2-fluorophenyl)pyrimido[1,2-a]benzimidazole-3-carbonitrile] are 1.24, 0.80 and 0.95.
The corresponding values for `N#Cc1c(-c2ccc(F)cc2)nc2nc3ccccc3n2c1N` [Compound 3d] are 1.04, 1.18 and 1.67.
Turning to `N#CC1=C(n2cccc2)n2c(nc3ccccc32)NC1c1cccc(F)c1` (stereo not drawn) [Compound 4a, 4-Pyrrolo-2-(3-fluorophenyl)-1,2-dihydropyrimido[1,2-a]benzimidazole-3-carbonitrile], the “SI (Vero/T. gondii)” value in data set [1] was 1.05. Moreover, in data set [2], the “SI Vero/Promastigotes” value is 1.72. Further, the “SI Vero/Amastigotes” value in data set [3] is on record as 0.69.
The corresponding values for `N#CC1=C(n2cccc2)n2c(nc3ccccc32)NC1c1cc(F)cc(F)c1` (stereo not drawn) [Compound 4b, 4-Pyrrolo-2-(3,5-difluorophenyl)-1,2-dihydropyrimido[1,2-a]benzimidazole-3-carbonitrile] are 1.78, 1.12 and 0.70.
The corresponding values for `N#CC1=C(n2cccc2)n2c(nc3ccccc32)NC1c1ccccc1F` (stereo not drawn) [Compound 4c, 4-Pyrrolo-2-(2-fluorophenyl)-1,2-dihydropyrimido[1,2-a]benzimidazole-3-carbonitrile] are 0.95, 1.55 and 0.48.
The corresponding values for `N#CC1=C(n2cccc2)n2c(nc3ccccc32)NC1c1ccc(F)cc1` (stereo not drawn) [Compound 4d, 4-Pyrrolo-2-(4-fluorophenyl)-1,2-dihydropyrimido[1,2-a]benzimidazole-3-carbonitrile] are 1.19, 1.29 and 0.80.
